Results of unrelated studies side by side (data: NIAID ChemDB).

Shared fields: toxicity to cultured cells; measure: CC50

CCn: concentration that lowers growth or viability of the cells by n%. Rows are shuffled and stem from different studies.

| smiles | cell line | result |
|---|---|---|
| Nc1ncnc2c1ncn2C[C@@H](CO)OCP(=O)(O)O | PHK | 16.4 µg/mL |
| C1CNC(C23CC4CC(CC(C4)C2)C3)C1 | MDCK | 1035 µM |
| Nc1nc(NC2CC2)c2ncn(CCOCP(=O)(O)O)c2n1 | PHK | 1.3 µg/mL |
| NC(=O)c1[nH]nc([C@@H]2O[C@H](CO)[C@@H](O)[C@H]2O)c1O | VERO 76 | 32 µM |
| Nc1nc2c(ncn2C(C=O)OC(C=O)CO)c(=O)[nH]1 | VERO E6 | >1040 µM |
| C[C@H]1O[C@@H](n2cnc3c(N)ncnc32)[C@H](O)[C@@H]1O | VERO E6 | >100 µM |
| NC1=NC(N)N(CCOCP(=O)(O)O)C=C1 | PHK | 17.7 µg/mL |
| CN(C)CCN1CCCCC1C12CC3CC(CC(C3)C1)C2 | MDCK | 616 µM |
| C[C@@H](Cn1cnc2c(=O)[nH]c(N)nc21)OCP(=O)(O)O | PHK | 5.3 µg/mL |
| Nc1nc2c(ncn2[C@H]2CC[C@@H](CO)O2)c(=O)[nH]1 | VERO E6 | >2 µM |
| O=Nc1ccc2ccccc2c1N=Nc1ccccc1C(=O)O | VERO | 363.7 µM |
| Nc1cc(OCCOCP(=O)(O)O)nc(N)n1 | PHK | 21.7 µg/mL |
| C1CCN(CCN2CCCCCC2C23CC4CC(CC(C4)C2)C3)CC1 | MDCK | 840 µM |
| CC(C)OP(=O)(O)COCCn1cnc2c(=O)[nH]c(N)nc21 | PHK | 13.6 µg/mL |
| C[C@H]1C[C@@H](n2cnc3c(N)nccc32)[C@H](O)[C@@H]1O | VERO E6 | >1016 µM |
| CN(C)C(=O)/N=N/C(=O)N(C)C | VERO | >200 µM |
| Nc1nccc2c1ncn2[C@@H]1C=C(CO)[C@@H](O)[C@H]1O | VERO E6 | >380 µM |
| NC12CC3CC(CC(C3)C1)C2 | MDCK | >1333 µM |
| CCCCNc1nc(N)nc2c1ncn2CCOCP(=O)(O)O | PHK | 11.3 µg/mL |
| Nc1ccn([C@H]2C[C@H](O)[C@@H](CO)O2)c(=O)n1 | VERO 76 | >100 µM |
| Nc1ncnc2c1ncn2[C@@H]1C=C(CO)[C@@H](O)[C@H]1O | VERO E6 | 60 µM |
| C1CCNC(C23CC4CC(CC(C4)C2)C3)CC1 | MDCK | 186 µM |
| CO[C@H]1C(n2ccc(NC(=O)c3ccccc3)nc2=O)O[C@H](CO)[C@H]1O | VERO 76 | >7 µM |

2 of the rows above, restated:

smiles,cell line,result
C1CNC(C23CC4CC(CC(C4)C2)C3)C1,MDCK,1035 µM
Nc1cc(OCCOCP(=O)(O)O)nc(N)n1,PHK,21.7 µg/mL